Measured values from several laboratories, pooled; numbers as filed in NIAID ChemDB.

Shared fields: enzyme or target tests

Blank or dashed fields: not listed here. Two numbers with a dash give a range or band. Rows are shuffled and stem from different studies. ICn is the concentration giving n% inhibition. Inhibition is in % at the dose shown (toxicity tests: loss of growth or viability).

compound,method,protein,strain or isolate,dose,species,measure,result
Cc1cn(C/C=C\CN2C(=O)c3cccc4cccc(c34)C2=O)c(=O)n(C)c1=O,absorbance,Thymidine monophosphate kinase,-,-,Mycobacterium tuberculosis,Ki,>100 µM
COC1=C(Br)[C@@H](O)[C@]2(C=C1Br)CC(C(=O)NCCc1cnc(N)[nH]1)=NO2,-,MYCOTHIOL-S-CONJUGATE AMIDASE,-,-,Mycobacterium tuberculosis,IC50,100 µM
CCOP(=O)(CC1[C@H](O)[C@H](O)C(O)[C@H](O)[C@H]1O)OCC,-,Phosphatidylinositol phosphate synthase,-,1000 µM,Mycobacterium bovis,inhibition,11%
CO[C@H]1CN(c2nc(-c3ncn(C)n3)c(C(=O)O)s2)CC[C@H]1NC(=O)c1[nH]c(C)c(Cl)c1Br,gel,DNA gyrase holoenzyme,H37Rv,-,Mycobacterium tuberculosis,IC50,<0.005 µM
Cc1cn([C@@H]2O[C@H](CO)[C@H]3CNC(=S)O[C@H]32)c(=O)[nH]c1=O,-,Thymidine monophosphate kinase,H37Rv,-,Mycobacterium tuberculosis,Ki,3.5 µM
N#CCC[C@H]1O[C@@H](n2cc(CO)c(=O)[nH]c2=O)C[C@@H]1O,binding / absorbance,TMPKmt,-,-,Mycobacterium tuberculosis,Ki,>2600 µM
C=CC/C=C(\C)c1ccc(C2=N/C(=C\c3ccc(CCCCC=C)[nH]3)C(OC)=C2)[nH]1,-,Protein tyrosine phosphatase A,-,-,Mycobacterium tuberculosis,IC50,28.7 µM
Cc1cn(C/C=C\CN2Cc3cccc4cccc(c34)C2=O)c(=O)[nH]c1=O,absorbance,Thymidine monophosphate kinase,-,-,Mycobacterium tuberculosis,Ki,1.4 µM
[2H]C([2H])([2H])OC(=O)N/C=C/CCCc1cc(O)c(C(=O)/C(C)=C/c2cnc(Oc3ccc(F)cc3)s2)c(=O)o1,nucleotide incorporation / fluorescence,RNA polymerase,-,-,Mycobacterium tuberculosis,IC50,0.03 µM
CC(C)c1c(O)ccc2c1CCC1C(C)(C)CCC[C@]21C,-,GTPase,-,10 µM,Mycobacterium tuberculosis,inhibition,24%
Cc1ccc(C)n1-c1cc(C(=O)O)ccc1O,-,Protein tyrosine phosphatase A,-,-,Mycobacterium tuberculosis,Ki,1.9 µM
CNc1cc(-c2[nH]c(C(C)(C)C)nc2-c2ccc3cc(OC)ccc3c2)ccn1,-,MTB glutamine synthethase,-,-,Mycobacterium tuberculosis,IC50,5.2 µM
Cc1cn(C/C=C\CN2C(=O)c3cccc4cccc(c34)C2O)c(=O)[nH]c1=O,absorbance,Thymidine monophosphate kinase,-,-,Mycobacterium tuberculosis,Ki,4.7 µM
COc1ccc(-n2cc(Cn3nc(-c4ccccc4)c4c3CCN(C(=O)Nc3ccccc3)C4)nn2)cc1OC,absorbance,Pantothenate synthetase,-,-,Mycobacterium tuberculosis,IC50,8.21 µM
Cc1cc(=O)n([C@@H]2O[C@H](CO)C3CC(=S)OC32)c(=O)[nH]1,-,Thymidine monophosphate kinase,-,-,Mycobacterium tuberculosis,Ki,8 µM
NNC(=O)c1ccncc1,-,Isocitrate lyase,H37Rv,-,Mycobacterium tuberculosis,IC50,1000 µM
COc1cccc(-n2cc(Cn3nc(-c4ccccc4)c4c3CCN(C(=O)Nc3ccccc3)C4)nn2)c1,absorbance,Pantothenate synthetase,-,-,Mycobacterium tuberculosis,IC50,7.78 µM
Cn1c(-c2cccc(N)c2)c(I)c2cc(C(=O)O)c(O)cc21,absorbance,mPTPB,-,-,Mycobacterium tuberculosis,IC50,19 µM
COc1c(N2CCN(Cn3c(O)c(N=NC(N)=S)c4cc(Cl)ccc43)C(C)C2)c(F)cc2c(=O)c(C(=O)O)cn(C3CC3)c12,-,Gyrase,-,-,Mycobacterium tuberculosis,IC50,4 µM
O=C(Nc1ccccc1)N1CCc2c(c(-c3ccccc3)nn2Cc2cn(-c3ccc(Cl)c(Cl)c3)nn2)C1,absorbance,Pantothenate synthetase,-,-,Mycobacterium tuberculosis,IC50,0.91 µM
COCCn1cnc(-c2nc(N3CC[C@@H](NC(=O)c4[nH]c(C)c(Cl)c4Br)[C@@H](OC)C3)sc2C(=O)O)n1,gel,DNA gyrase holoenzyme,H37Rv,-,Mycobacterium tuberculosis,IC50,<0.005 µM
Cc1cn([C@@H]2C[C@H](O)[C@@H](CNC(=S)Nc3ccc(Cl)c(C(F)(F)F)c3)O2)c(=O)[nH]c1=O,absorbance,TMPK,-,-,Mycobacterium tuberculosis,Ki,2.3 µM
CCC(CC)(P(=O)(O)O)P(=O)(O)CC/C=C(\C)CCC=C(C)C,-,Z-farnesyl diphosphate synthase,H37Rv,-,Mycobacterium tuberculosis,IC50,400 µM
Nc1nc(N)c2cc(COC(=O)c3cccs3)ccc2n1,-,Dihydrofolate reductase,-,-,Mycobacterium avium,IC50,0.053 µM
COc1cc(NCc2cnc3nc(N)nc(N)c3c2C)cc(OC)c1,-,DHFR,-,-,Mycobacterium avium complex,IC50,0.00064 µM
COc1c(N2CCN(Cn3c(O)c(N=NC(N)=O)c4ccccc43)C(C)C2)c(F)cc2c(=O)c(C(=O)O)cn(C3CC3)c12,-,Gyrase,-,-,Mycobacterium tuberculosis,IC50,3 µM
Cc1ccc(C)n1-c1ccc(C(=O)O)c(C(=O)O)c1,-,Protein tyrosine phosphatase A,-,-,Mycobacterium tuberculosis,Ki,11 µM
CC(C)[C@H]1CO[C@]23CCN(Cc4ccc(C(F)(F)F)cc4)C[C@H]2CC(=O)N13,resazurin,NADH dehydrogenase,-,-,Mycobacterium tuberculosis,IC50,0.1–1 µM
OC[C@@H](O)[C@H]1NC[C@H](O)[C@H]1O,-,Arabinofuranosyltransferase,-,-,Mycobacterium tuberculosis,IC50,>4000 µM
Cc1cn(C/C=C\CN2C(=O)C3=CC=CC4=C(N)C=CC2C34)c(=O)[nH]c1=O,absorbance,Thymidine monophosphate kinase,-,-,Mycobacterium tuberculosis,Ki,2.4 µM
Cc1cn([C@@H]2O[C@H](COP(=O)([O-])[O-])[C@@H](CN=[N+]=[N-])[C@H]2O)c(=O)[nH]c1=O,-,Thymidine monophosphate kinase,-,-,Mycobacterium tuberculosis,Ki,>1000 µM
Cc1cc(=O)n([C@@H]2O[C@H](C)C3CNC(=S)OC32)c(=O)[nH]1,-,Thymidine monophosphate kinase,-,-,Mycobacterium tuberculosis,Ki,2.3 µM
COc1c(N2CCN(Cn3c(O)c(N=NC(N)=O)c4cc(Cl)ccc43)C(C)C2)c(F)cc2c(=O)c(C(=O)O)cn(C3CC3)c12,-,Gyrase,-,-,Mycobacterium tuberculosis,IC50,4 µM
C=C/C(C)=C/[C@@]1(C)SC(=O)C(C)=C1O,-,FAS-II synthetase,-,-,Mycobacterium smegmatis,IC50,60 µg/mL
Cc1ccc(C)n1-c1cc(C(=O)O)cc(C(=O)O)c1,-,Protein tyrosine phosphatase A,-,-,Mycobacterium tuberculosis,Ki,34 µM
CC(C)[C@H]1CO[C@]23CCN(Cc4ccc(Cl)c(Cl)c4)C[C@H]2CCC(=O)N13,resazurin,NADH dehydrogenase,-,-,Mycobacterium tuberculosis,IC50,<0.1 µM
O=C(O)c1c2n(c3cc(N4CCN(C(=O)c5ccco5)CC4)c([N+](=O)[O-])cc3c1=O)CS2,gel,DNA gyrase,ATCC 14468 MC2,-,Mycobacterium smegmatis,IC50,50 µg/mL
Nc1nc(N)c2cc(COC(=O)c3ccoc3)ccc2n1,-,Dihydrofolate reductase,-,-,Mycobacterium avium,IC50,0.1 µM
NS(=O)(=O)OC1[C@H](O)[C@H](O)C(O)[C@H](O)[C@H]1O,-,Phosphatidylinositol phosphate synthase,-,1000 µM,Mycobacterium bovis,inhibition,16%
OC[C@@H]1NC[C@H](O)[C@H]1O,-,Arabinofuranosyltransferase,-,-,Mycobacterium tuberculosis,IC50,>4000 µM
CCn1cnc(-c2nc(N3CC[C@@H](NC(=O)c4[nH]c(C)c(Cl)c4Br)[C@@H](OC)C3)sc2C(=O)O)n1,gel,DNA gyrase holoenzyme,H37Rv,-,Mycobacterium tuberculosis,IC50,<0.005 µM
Cc1cc(C)cc(C(=O)OCc2ccc3nc(N)nc(N)c3c2)c1,-,Dihydrofolate reductase,-,-,Mycobacterium avium,IC50,0.1 µM
Cc1cn([C@@H]2C[C@H](O)[C@@H](CNC(=S)Nc3ccccc3)O2)c(=O)[nH]c1=S,absorbance,TMPKmt,-,-,Mycobacterium tuberculosis,Ki,50 µM
CCCCCCCCCCCC[C@H]1OC(=O)[C@H](COCc2ccccc2)NC(=O)[C@H](C(C)O)NC(=O)[C@H](C(C)C)NC(=O)[C@H]1C,-,Protein tyrosine phosphatase A,-,-,Mycobacterium tuberculosis,IC50,8.8 µM
O=C(O)c1c2n(c3cc(N4CCN(Cc5ccc6c(c5)OCO6)CC4)c([N+](=O)[O-])cc3c1=O)CS2,gel,DNA gyrase,ATCC 14468 MC2,-,Mycobacterium smegmatis,IC50,>50 µg/mL
O=C(NO)C(O)C(O)C(O)COP(=O)([O-])[O-],-,Ribose-5-phosphate isomerase,-,-,Mycobacterium tuberculosis,Ki,40 µM
CC(C)[C@H]1CO[C@]23CCN(Cc4ccc(Cl)cc4)C[C@H]2CCC(=O)N13,resazurin,NADH dehydrogenase,-,-,Mycobacterium tuberculosis,IC50,<0.1 µM
Cc1cc(=O)n([C@@H]2O[C@H](CO)C3CNC(=S)NC32)c(=O)[nH]1,-,Thymidine monophosphate kinase,-,-,Mycobacterium tuberculosis,Ki,21 µM
Nc1nc(N)c2cc(COC(=O)c3ccc(-c4ccccc4)cc3)ccc2n1,-,Dihydrofolate reductase,-,-,Mycobacterium avium,IC50,1.5 µM

A second listing of 3 rows from above:

compound,method,protein,strain or isolate,dose,species,measure,result
Cc1cc(=O)n([C@@H]2O[C@H](C)C3CNC(=S)OC32)c(=O)[nH]1,-,Thymidine monophosphate kinase,-,-,Mycobacterium tuberculosis,Ki,2.3 µM
COc1c(N2CCN(Cn3c(O)c(N=NC(N)=O)c4ccccc43)C(C)C2)c(F)cc2c(=O)c(C(=O)O)cn(C3CC3)c12,-,Gyrase,-,-,Mycobacterium tuberculosis,IC50,3 µM
CC(C)c1c(O)ccc2c1CCC1C(C)(C)CCC[C@]21C,-,GTPase,-,10 µM,Mycobacterium tuberculosis,inhibition,24%